2 molecules from publication PMC10444775 (Scientific Reports, 2023) can be followed below.

Test [1] has as its target SARS-CoV prefusion-stabilized spike protein (SARS-CoV-PreS) (SARS-CoV (strain not named; reference …, UniProt P59594, K968P | V969P).
In a further test the target is 7A9 VHH-Fc (llama). The test can be described thus: flow cytometry on cells. To be noted: one partner purified. (A flow cytometer gives signals particle by particle.)

B1: 7A9 VHH (VHH)
VHH: QVQLVESGGGLVQAGGSLRLSCSASGGTASRSAMGWFRQAPGKEREFVAGISRRNSGSTYVADSYEDSVKGRFTISRDNAKNTIYLQMNSLKPEDTAVYYCAAEPTLGWYVPRRSVEYEYWGQGTQVTVSS
Take B1: the binding result in test [1] was “binds”.

B2: MERS spike protein aa 1-1337 on CHO K1 cells (natural protein)
chain: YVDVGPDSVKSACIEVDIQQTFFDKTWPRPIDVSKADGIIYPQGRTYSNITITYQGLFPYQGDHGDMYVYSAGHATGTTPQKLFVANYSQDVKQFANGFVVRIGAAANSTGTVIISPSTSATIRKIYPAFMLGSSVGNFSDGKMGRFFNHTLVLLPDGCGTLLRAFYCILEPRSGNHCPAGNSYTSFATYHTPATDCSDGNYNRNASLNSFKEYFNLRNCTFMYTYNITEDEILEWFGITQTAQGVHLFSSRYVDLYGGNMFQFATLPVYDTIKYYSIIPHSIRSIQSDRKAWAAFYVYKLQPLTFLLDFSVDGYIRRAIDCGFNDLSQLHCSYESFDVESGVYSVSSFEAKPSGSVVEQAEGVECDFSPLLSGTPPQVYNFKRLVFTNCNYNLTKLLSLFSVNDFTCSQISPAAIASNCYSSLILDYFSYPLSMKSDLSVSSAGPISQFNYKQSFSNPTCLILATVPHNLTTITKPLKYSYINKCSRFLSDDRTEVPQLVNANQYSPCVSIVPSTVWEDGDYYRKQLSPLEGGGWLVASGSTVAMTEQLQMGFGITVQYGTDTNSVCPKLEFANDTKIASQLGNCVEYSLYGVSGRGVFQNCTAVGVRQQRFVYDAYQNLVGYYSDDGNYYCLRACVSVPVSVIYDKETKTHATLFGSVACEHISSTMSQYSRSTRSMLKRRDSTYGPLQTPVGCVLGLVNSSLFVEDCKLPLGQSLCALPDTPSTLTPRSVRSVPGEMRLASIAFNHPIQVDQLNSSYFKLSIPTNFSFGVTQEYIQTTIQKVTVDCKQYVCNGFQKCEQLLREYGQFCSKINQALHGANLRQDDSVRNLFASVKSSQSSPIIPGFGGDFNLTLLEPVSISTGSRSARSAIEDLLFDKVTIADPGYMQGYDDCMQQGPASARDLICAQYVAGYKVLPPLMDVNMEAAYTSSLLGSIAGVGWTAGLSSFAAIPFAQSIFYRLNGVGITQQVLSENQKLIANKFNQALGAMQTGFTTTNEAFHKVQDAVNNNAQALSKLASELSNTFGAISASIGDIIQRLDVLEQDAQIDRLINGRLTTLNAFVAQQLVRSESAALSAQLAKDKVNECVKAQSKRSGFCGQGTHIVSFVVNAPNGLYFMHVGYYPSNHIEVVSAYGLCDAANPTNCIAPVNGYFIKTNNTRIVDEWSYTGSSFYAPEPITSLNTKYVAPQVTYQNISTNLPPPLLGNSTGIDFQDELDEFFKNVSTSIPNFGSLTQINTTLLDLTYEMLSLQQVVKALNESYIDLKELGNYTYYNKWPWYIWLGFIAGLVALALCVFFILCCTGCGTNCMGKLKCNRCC
Turning to B2, in the test with 7A9 VHH-Fc, the binding result was “no binding”.
